Data on two compounds can be found in publication PMC11207111, “Assessment of the Activity of Nitroisoxazole Derivatives against Trypanosoma cruzi” (Molecules, 2024).

In this data set the test system is trypomastigote of T. cruzi Dm28. Description: Trypanocidal activity (MTT) on trypomastigotes. In kind it is cell-based, Trypanosoma cruzi. The settings on record: SI=IC50 Vero cells/IC50 T. cruzi. The procedure:
As a preliminary step, a study of nitroisoxazole derivatives on the epimastigote form of T. cruzi was performed. Despite the epimastigote form not being a clinical form present in mammals, its easy handling has allowed screening for the trypanocidal activity of various compounds. It is worth noting that, during the intracellular life cycle of the parasite, a form similar to the epimastigote, which is biochemically and morphologically identical to the form present in the vector, has been described. […] This is consistent with studies by Fonseca-Berzal et al. […] Additionally, compounds with higher activity have aromatic rings as substituents for nitroisoxazoles, confirming what was described Do […] [40]. […] It has also been determined that the presence of an isoxazole is essential for activity, as its aromatic structure contains a weak nitrogen-oxygen bond that, under different reaction conditions, can undergo ring cleavage, increasing activity. […] The effects of the compounds on trypomastigote and Vero cell viability were evaluated by tetrazolium salt reduction assay (MTT). […] The plates were kept overnight at 37 °C (28 °C for epimastigotes), and the optical density (OD) was determined using a 96-well microplate reader (Vantaa, Finland) at 570 nm. […]

Regarding `CCN(CC)c1ccc2cc(/C=C/c3onc(C)c3[N+](=O)[O-])c(=O)oc2c1` [Compound 11, (E)-7-(Diethylamino)-3-(2-(3-methyl-4-nitroisoxazol-5-yl)vinyl)-2H-chromen-2-one], the “SI T (trypomastigote)” value is given as 0.3.

On to `COc1cc(/C=C/c2onc(C)c2[N+](=O)[O-])ccc1O` [Compound 9, (E)-2-Methoxy-4-(2-(3-methyl-4-nitroisoxazol-5-yl)vinyl)phenol], for which the “SI T (trypomastigote)” value worked out at 0.6.
